Test results: the NIST ThermoML archive (doi:10.1016/j.jct.2018.12.036)

Assay: xn = mol fraction of the nth substance listed
Conditions: Plate method

CCCCOP(=O)(OCCCC)OCCCC [tributyl phosphate] + CCCCn1cc[n+](C)c1.F[B-](F)(F)F
surface tension liquid-gas [mN/m]
Conditions | 293.15 K | 298.15 K | 303.15 K | 308.15 K | 313.15 K | 318.15 K | 323.15 K
x2 = 0 | 27.79 ± 0.42 | 27.42 ± 0.42 | 27.05 ± 0.42 | 26.69 ± 0.42 | 26.35 ± 0.42 | 26.02 ± 0.42 | 25.66 ± 0.42
x2 = 0.1158 | 28.22 ± 0.43 | 27.87 ± 0.43 | 27.56 ± 0.43 | 27.2 ± 0.43 | 26.84 ± 0.43 | 26.51 ± 0.43 | 26.12 ± 0.43
x2 = 0.2275 | 28.61 ± 0.43 | 28.27 ± 0.43 | 27.92 ± 0.43 | 27.57 ± 0.43 | 27.21 ± 0.43 | 26.89 ± 0.43 | 26.54 ± 0.43
x2 = 0.3355 | 28.88 ± 0.43 | 28.56 ± 0.43 | 28.21 ± 0.43 | 27.84 ± 0.43 | 27.51 ± 0.43 | 27.17 ± 0.43 | 26.84 ± 0.43
x2 = 0.4399 | 29.21 ± 0.43 | 28.91 ± 0.43 | 28.52 ± 0.43 | 28.16 ± 0.43 | 27.79 ± 0.43 | 27.48 ± 0.43 | 27.22 ± 0.43
x2 = 0.5409 | 29.48 ± 0.43 | 29.19 ± 0.43 | 28.84 ± 0.43 | 28.47 ± 0.43 | 28.12 ± 0.43 | 27.81 ± 0.43 | 27.48 ± 0.43
x2 = 0.6387 | 29.89 ± 0.44 | 29.54 ± 0.44 | 29.24 ± 0.44 | 28.91 ± 0.44 | 28.49 ± 0.43 | 28.22 ± 0.43 | 27.89 ± 0.43
x2 = 0.7333 | 30.32 ± 0.44 | 30.04 ± 0.44 | 29.71 ± 0.44 | 29.34 ± 0.44 | 28.97 ± 0.44 | 28.69 ± 0.44 | 28.37 ± 0.44
x2 = 0.825 | 30.97 ± 0.49 | 30.68 ± 0.48 | 30.35 ± 0.49 | 30 ± 0.48 | 29.64 ± 0.49 | 29.38 ± 0.49 | 29.02 ± 0.49
x2 = 0.9138 | 32.38 ± 0.7 | 32.05 ± 0.67 | 31.79 ± 0.68 | 31.39 ± 0.68 | 31.07 ± 0.69 | 30.79 ± 0.68 | 30.48 ± 0.71
x2 = 0.9572 | 34.89 ± 1.7 | 34.57 ± 1.7 | 34.28 ± 1.7 | 34.01 ± 1.7 | 33.74 ± 1.7 | 33.38 ± 1.7 | 33 ± 1.7
x2 = 0.9915 | 38.98 ± 1.1 | 38.61 ± 1.1 | 38.31 ± 1.1 | 38.09 ± 1.1 | 37.73 ± 1.1 | 37.46 ± 1.1 | 37.14 ± 1.1

CCCCOP(=O)(OCCCC)OCCCC [tributyl phosphate] + CCCCn1cc[n+](C)c1.F[P-](F)(F)(F)(F)F
surface tension liquid-gas [mN/m]
Conditions | 293.15 K | 298.15 K | 303.15 K | 308.15 K | 313.15 K | 318.15 K | 323.15 K
x2 = 0.0943 | 28.63 ± 0.45 | 28.24 ± 0.45 | 27.89 ± 0.45 | 27.61 ± 0.45 | 27.29 ± 0.45 | 26.92 ± 0.45 | 26.53 ± 0.45
x2 = 0.1898 | 29.18 ± 0.44 | 28.85 ± 0.44 | 28.46 ± 0.44 | 28.18 ± 0.44 | 27.88 ± 0.44 | 27.53 ± 0.44 | 27.15 ± 0.44
x2 = 0.2866 | 29.66 ± 0.44 | 29.34 ± 0.44 | 28.99 ± 0.44 | 28.65 ± 0.43 | 28.34 ± 0.43 | 28.03 ± 0.43 | 27.68 ± 0.43
x2 = 0.3845 | 30.11 ± 0.44 | 29.77 ± 0.44 | 29.41 ± 0.44 | 29.07 ± 0.44 | 28.79 ± 0.44 | 28.47 ± 0.44 | 28.11 ± 0.43
x2 = 0.4838 | 30.61 ± 0.44 | 30.25 ± 0.44 | 29.92 ± 0.44 | 29.65 ± 0.44 | 29.31 ± 0.44 | 28.97 ± 0.44 | 28.62 ± 0.44
x2 = 0.5843 | 31.12 ± 0.44 | 30.76 ± 0.44 | 30.43 ± 0.44 | 30.15 ± 0.44 | 29.83 ± 0.44 | 29.51 ± 0.44 | 29.16 ± 0.44
x2 = 0.6862 | 31.62 ± 0.44 | 31.29 ± 0.44 | 30.95 ± 0.44 | 30.69 ± 0.44 | 30.36 ± 0.44 | 30.03 ± 0.44 | 29.7 ± 0.44
x2 = 0.7894 | 32.09 ± 0.44 | 31.76 ± 0.44 | 31.44 ± 0.44 | 31.14 ± 0.44 | 30.85 ± 0.44 | 30.53 ± 0.44 | 30.16 ± 0.44
x2 = 0.894 | 32.5 ± 0.61 | 32.17 ± 0.59 | 31.86 ± 0.59 | 31.59 ± 0.59 | 31.27 ± 0.59 | 30.95 ± 0.59 | 30.61 ± 0.62
x2 = 0.9574 | 35.96 ± 1.1 | 35.67 ± 1.2 | 35.35 ± 1.2 | 35.06 ± 1.2 | 34.81 ± 1.2 | 34.57 ± 1.2 | 34.29 ± 1.2
x2 = 0.9893 | 37.54 ± 0.69 | 37.34 ± 0.71 | 37.07 ± 0.73 | 36.81 ± 0.73 | 36.49 ± 0.72 | 36.23 ± 0.71 | 35.95 ± 0.71

Numbers after ± are expanded uncertainties.
